# Mutational interference map of HIV-1 RNA dimerization

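Randomly mutated transcripts starting with one, two or three G (1G, 2G, 3G), capped or uncapped, were folded for 30 min at 37 °C. Monomer and dimer bands were cut from native gels after folding in high salt (300 mM KCl, 5 mM MgCl2) or low salt (40 mM KCl, 0.1 mM MgCl2). Mutation frequencies in the two bands give Kdimer.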

RNA: 5' end of the HIV-1 NL4-3 genome, made in vitro. Positions 1-437 read:
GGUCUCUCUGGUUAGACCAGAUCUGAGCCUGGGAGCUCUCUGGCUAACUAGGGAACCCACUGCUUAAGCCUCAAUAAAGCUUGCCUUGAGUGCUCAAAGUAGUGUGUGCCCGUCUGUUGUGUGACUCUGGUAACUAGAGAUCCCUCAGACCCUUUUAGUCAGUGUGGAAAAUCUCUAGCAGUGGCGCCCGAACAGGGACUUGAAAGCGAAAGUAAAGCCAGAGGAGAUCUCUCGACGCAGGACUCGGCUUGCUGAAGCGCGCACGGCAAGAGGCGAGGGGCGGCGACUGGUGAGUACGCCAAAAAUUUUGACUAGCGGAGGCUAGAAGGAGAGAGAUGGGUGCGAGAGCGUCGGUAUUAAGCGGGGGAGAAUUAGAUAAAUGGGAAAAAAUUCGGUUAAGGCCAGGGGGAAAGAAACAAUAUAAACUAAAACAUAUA

Scale: median log2 Kdimer over the changes at a position; positive = changes inhibit dimerization, negative = changes enhance it.
One numbering serves 1G, 2G and 3G.
A position is written with its base where known.
Bases beyond 437 are not listed in the source.

position 496 gave 2G uncapped high-salt 0.10; 1G capped low-salt 0.06; 3G capped high-salt -0.06; 1G capped high-salt 0.07. position 497 gave 2G uncapped high-salt 0.01; 1G capped low-salt 0.07; 3G capped high-salt 0.02; 1G capped high-salt 0.04. With position 498 the assay gave 2G uncapped high-salt 0.04; 1G capped low-salt -0.02; 3G capped high-salt 0.12; 1G capped high-salt 0.17. position 499 gave 2G uncapped high-salt 0.04; 1G capped low-salt 0.05; 3G capped high-salt -0.04; 1G capped high-salt 0.19. position 500 read 2G uncapped high-salt -0.14; 1G capped low-salt -0.09; 3G capped high-salt 0.01; 1G capped high-salt -0.12. With position 501 the assay gave 2G uncapped high-salt 0.09; 1G capped low-salt -0.16; 3G capped high-salt 0.01; 1G capped high-salt 0.25. With position 502 the assay gave 2G uncapped high-salt -0.11; 1G capped low-salt 0.01; 3G capped high-salt 0.18; 1G capped high-salt 0.02. For position 503 the result was 2G uncapped high-salt 0.04; 1G capped low-salt -0.06; 3G capped high-salt 0.07; 1G capped high-salt -0.02.

position 504 gave 2G uncapped high-salt -0.02; 1G capped low-salt -0.01; 3G capped high-salt -0.02; 1G capped high-salt -0.02. position 505 read 2G uncapped high-salt -0.10; 1G capped low-salt 0.11; 3G capped high-salt -0.19; 1G capped high-salt -0.05. position 506 read 2G uncapped high-salt -0.04; 1G capped low-salt 0.00; 3G capped high-salt 0.05; 1G capped high-salt 0.06. With position 507 the assay gave 2G uncapped high-salt 0.05; 1G capped low-salt -0.05; 3G capped high-salt -0.13; 1G capped high-salt -0.05. position 508 gave 2G uncapped high-salt 0.15; 1G capped low-salt -0.07; 3G capped high-salt 0.11; 1G capped high-salt 0.26. position 509 read 2G uncapped high-salt 0.05; 1G capped low-salt -0.07; 3G capped high-salt 0.05; 1G capped high-salt -0.07. With position 510 the assay gave 2G uncapped high-salt -0.03; 1G capped low-salt -0.02; 3G capped high-salt 0.01; 1G capped high-salt 0.15. With position 511 the assay gave 2G uncapped high-salt 0.04; 1G capped low-salt 0.09; 3G capped high-salt 0.03; 1G capped high-salt 0.09.

For position 512 the result was 2G uncapped high-salt 0.06; 1G capped low-salt -0.03; 3G capped high-salt -0.07; 1G capped high-salt 0.13. With position 513 the assay gave 2G uncapped high-salt 0.04; 1G capped low-salt 0.09; 3G capped high-salt 0.03; 1G capped high-salt 0.06. For position 514 the result was 2G uncapped high-salt -0.03; 1G capped low-salt -0.08; 3G capped high-salt -0.12; 1G capped high-salt -0.01. position 515 read 2G uncapped high-salt 0.01; 1G capped low-salt -0.02; 3G capped high-salt 0.05; 1G capped high-salt 0.00.

The last 2 entries again:

position,domain,2G uncapped high-salt,1G capped low-salt,3G capped high-salt,1G capped high-salt
514,none,-0.03,-0.08,-0.12,-0.01
515,none,0.01,-0.02,0.05,0.00

Values reported by Ye et al. 2022 (doi:10.1038/s41594-022-00746-2).